The target in the assay is soluble CD28 comprising its extracellular domain fused to IgG1-Fc dimer (CD28-Fc) (human, UniProt P10747 19-152). Nature of the assay: SPR. A general note: In SPR one partner is held on a chip, and binding of the other changes the refractive index at the surface.

As for CTNKKKVTAQELDC [pSEB (TNKKKVTAQELD), SEB 150-161], the binding result was “binds”.

These data come from PMC3172200 (PLoS Biology, 2011).
